{"source": "PubChem BioAssay AID540268", "about": "(Broad Institute, 2011)", "system": "Plasmodium falciparum 3D7 growth, plate reader", "test": "reduced viability of parasite-Hsp90 expressing yeast – ATP luminescence, 48 h, cherry-picked samples, anti-malarial Hsp90 inhibitor project, dose response (AID 540268)"}
{"molecule": "CC1=CC2OC3CC4OC(=O)C=CC=CC(=O)OCCC(C)C(O)C(=O)OCC2(CC1)C4(C)C31CO1", "note": "(stereo unspecified)", "values": [{"measurement": "AC50", "result": 221, "unit": "nM"}]}
